Reference: patent publication US20090191571A1, “Isolation and Detection of Pathogenic Prions” (priority 2005, published 2009)
Like-named read-outs stand apart in the source and are kept apart here.

Experiments:
[1] = molecular target: T1, PrP^Sc (pathogenic mouse prion protein, RML, in infected Balb-c mouse brain homogenate) (mouse), P04925
[2] = molecular target: T1, PrP^Sc (pathogenic mouse prion protein, …); remark: listed apart in the source

Row | Binder | ELISA A405nm [1] | ELISA A405nm [2]
1 | QWNKPSKPKTNGGGQWNKPSKPKTN [Peptide reagent SEQ ID NO:51] | 0.923 A405nm | 
2 | QWNKPSKPKTNLKHVGGG [Peptide reagent SEQ ID NO:77] | 0.839 A405nm | 
3 | GGGAGAAAAGAVVGGLGGYMLGSAM [Peptide reagent SEQ ID NO:78] | 0.259 A405nm | 
4 | KKKAGAAAAGAVVGGLGGYMLGSAM [Peptide reagent SEQ ID NO:57] | 0.901 A405nm | 
5 | GGGKKRPKPGGWNTGGSRYPGQGS [Peptide reagent SEQ ID NO:66] | 0.533 A405nm | 
6 | GGGWNKPSKPKT [Peptide reagent SEQ ID NO:75] | 0.247 A405nm | 
7 | GGGKKRPKPGGGQWNKPSKPKTN [Peptide reagent SEQ ID NO:81] | 1.25 A405nm | 
8 | DDDAGAAAAGAVVGGLGGYMLGSAM [Peptide reagent SEQ ID NO:83] | 0.237 A405nm | 
9 | KKKAGAAAAGAVVGGLGGYMLGSAMKKK [Peptide reagent SEQ ID NO:84] | 0.268 A405nm | 
10 | DDDAGAAAAGAVVGGLGGYMLGSAMDDD [Peptide reagent SEQ ID NO:86] | 0.227 A405nm | 
11 | GGGQWNKPSKAKTN [Peptide reagent SEQ ID NO:91] | 0.256 A405nm | 0.26 A405nm
12 | GGGQWNKPSAPKTN [Peptide reagent SEQ ID NO:93] | 0.25 A405nm | 0.256 A405nm
13 | GGGQWNKPSKPATN [Peptide reagent SEQ ID NO:94] | 0.26 A405nm | 0.23 A405nm
14 | GGGQWNKASKPKTN [Peptide reagent SEQ ID NO:99] |  | 0.25 A405nm
15 | QWNKPSKPKTNGGG [Peptide reagent SEQ ID NO:50] | 0.932 A405nm | 
16 | GGGQWAKPSKPKTN [Peptide reagent SEQ ID NO:100] |  | 0.376 A405nm
17 | GGGQWNKPAKPKTN [Peptide reagent SEQ ID NO:101] |  | 0.356 A405nm
18 | GGGQWNKPSKPKAN [Peptide reagent SEQ ID NO:102] |  | 0.234 A405nm
